Pooled drug test results. Numbers come from NIAID ChemDB, via PubChem.

All rows: tests in culture; agent: HIV-1; read by: cytopathic effect / XTT; read-out: EC50

Neighbouring rows are from separate reports.

compound,changes,conditions,strain or isolate,cell line,value
Cc1cccc(C)c1CNC(=O)[C@H]1N(C(=O)[C@@H](O)[C@H](Cc2ccc3c(c2)OCO3)NC(=O)c2cccc(O)c2C)CSC1(C)C,,50% human serum,IIIB,CEM,0.014 µM
O=C1N(c2ccccc2)c2ccccc2C1(CCCc1cccnc1)CCCc1cccnc1,,,IIIB,MT-2,1.9 µM
Cc1cc(S(=O)(=O)Nc2nc3ccccc3[nH]2)c(S)cc1Cl,,,RF,CEM,>58.2 µM
Cc1cn([C@H]2C[C@H](N=[N+]=[N-])[C@@H](CO)O2)c(=O)[nH]c1=O,RT-P236L,,IIIB HEPT-resistant (RT P236L),CEM + CEM-SS,0.006 µM
CC1(C)COC(C2(C)C=CCc3ccccc32)=N1,,,RF,CEM + CEM-SS,>434 µM
O=S1(=O)[C@@H](Cc2ccccc2)[C@@H](OCc2ccccc2)[C@@H](O)[C@H](O)[C@H](OCc2ccccc2)[C@@H]1Cc1ccccc1,,,IIIB,MT-2,10–50 µM
Cc1cc(S(=O)(=O)Nc2nnc3c(C(F)(F)F)cc(Cl)cn23)c(S)cc1Cl,,,RF,CEM,58.1 µM
COc1cccc(CO[C@@H]2[C@H](O)[C@@H](O)[C@@H](OCc3cccc(OC)c3)[C@@H](Cc3ccccc3)S(=O)(=O)[C@@H]2Cc2ccccc2)c1,,,IIIB,MT-2,<2 µM
CN(C)CCCNC(=O)c1cc(NC(=O)c2cc(NC(=O)c3cc(NC4C(=O)c5ccccc5C4=O)cn3C)cn2C)cn1C,,,,CEM,52 µM
Cc1cc(S(=O)(=O)Nc2nc(N)nc(N(C)C)n2)c(S)cc1Cl,,,RF,CEM,>200 µM
CCc1c(Sc2ccccn2)n(COCc2ccccc2)c(=O)[nH]c1=O,RT-D67N K70R L100I T215Y K219Q,,4XAZT+L100I (RT D67N K70R L100I T215Y K219Q),CEM + CEM-SS,0.018 µM
CN1CCC2(CC1)C(=O)N(c1ccccc1)c1ccccc12,,,IIIB,MT-2,4.1 µM
Cc1cn([C@H]2C[C@H](N=[N+]=[N-])[C@@H](CO)O2)c(=O)[nH]c1=O,,,RF,CEM + CEM-SS,0.0003 µM
CNC(=O)[C@@H](NC(=O)[C@H](OCc1ccc(-c2cccs2)cc1)[C@H](O)[C@@H](O)[C@@H](OCc1ccc(-c2cccs2)cc1)C(=O)N[C@H](C(=O)NC)C(C)C)C(C)C,,,,MT-4,0.02 µM
Cc1ccnc2c1NC(=O)c1cccnc1N2C1CC1,RT-K103E,,NL4-3,CEM + CEM-SS,0.3 µM
O=c1c2ccccc2n2nnc3ccc(NCCCN4CCN(CCCNc5ccc6nnn7c8ccccc8c(=O)c5c67)CC4)c1c32,,,IIIB,CEM + CEM-SS,0.0056 µM
Cc1ccnc2c1NC(=O)c1cccnc1N2C1CC1,RT-Y188C,,NL4-3 (RT Y188C),CEM + CEM-SS,3.2 µM
CC1=C(C(=O)Nc2ccc(Cl)c(C(=O)OC(C)C)c2)SCCO1,,,IIIB,AA5,0.53 µM
CN1CC=C(CC2(CC3=CCN(C)CC3)C(=O)N3c4ccccc4CCc4cccc2c43)CC1,,,IIIB,MT-2,1.9 µM
Cc1cc(S(=O)(=O)Nc2nc(N)n(C)n2)c(S)cc1Cl,,,RF,CEM,>200 µM
Cc1cn([C@H]2C[C@H](N=[N+]=[N-])[C@@H](CO)O2)c(=O)[nH]c1=O,,,RF,CEM + CEM-SS,0.01 µM
C=C1C=C(OC)C(C)(C2=NC(C)(C)CO2)c2cc(OC)c(C)cc21,,,RF,CEM + CEM-SS,>81 µM
O=S(=O)(Nc1nnc2n1-c1ccccc1CC2)c1ccc(F)cc1S,,,RF,CEM,>109.3 µM
Cc1occc1C(=S)Nc1ccc(Cl)c(/C=N/OC(C)(C)C)c1,RT-Y188C,,NL4-3 (RT Y188C),CEM + CEM-SS,0.4 µM
CN1CC=C(CC2(CC3=CCN(C)CC3)C(=O)N(c3ccccc3)c3cc4ccccc4cc32)CC1,,,IIIB,MT-2,4.4 µM
Cc1ccc(CO[C@@H]2[C@H](O)[C@@H](O)[C@@H](OCc3ccc(C)cn3)[C@@H](Cc3ccccc3)S(=O)(=O)[C@@H]2Cc2ccccc2)nc1,,,IIIB,MT-2,2–10 µM
CCOc1ccc(C[C@H](NC(=O)c2cccc(O)c2C)[C@H](O)C(=O)N2CSC(C)(C)[C@H]2C(=O)NCc2ccccc2C)cc1,,15% FBS,IIIB,CEM,0.0065 µM
Nc1ccc(CO[C@@H]2[C@H](O)[C@@H](O)[C@@H](OCc3ccc(N)c(C(F)(F)F)c3)[C@@H](Cc3ccccc3)S(=O)(=O)[C@@H]2Cc2ccccc2)cc1C(F)(F)F,,,IIIB,MT-2,<2 µM
CCCc1cc(=O)oc2c3c(c4c(c12)OC(C)(C)C=C4)O[C@@H](C)[C@H](C)[C@@H]3O,,,RF,CEM + CEM-SS,0.2 µM
C/C=C/CSc1cc(NC(=S)c2ccsc2C)ccc1Cl,RT-Y181C,,NL4-3 (RT Y181C),CEM + CEM-SS,0.8 µM
CCCc1cc(=O)oc2c3c(c4c(c12)OC(C)(C)C=C4)O[C@H](C)[C@@H](C)[C@@H]3O,,,IIIB,U-937,0.2 µM
O=C(N[C@H]1c2ccccc2C[C@H]1O)[C@H](OCc1ccc(F)cc1)[C@H](O)[C@@H](O)[C@@H](OCc1ccc(F)cc1)C(=O)N[C@H]1c2ccccc2C[C@H]1O,,,,MT-4,0.2 µM
O=[N+]([O-])c1ccccc1S(=O)(=O)c1ccccc1,,,IIIB,AA5,2.13 µM
CN(C)CCCNC(=O)c1cc(NC(=O)c2cc(NC(=O)c3cc(NC(=O)c4ccc(C(=O)Nc5cc(C(=O)Nc6cc(C(=O)Nc7cc(C(=O)NCCCN(C)C)n(C)c7)n(C)c6)n(C)c5)nc4)cn3C)cn2C)cn1C,,,,CEM,0.3 µM
Cc1cc(S(=O)(=O)Nc2nc(N)nc3nc4ccccc4n23)c(S)cc1Cl,,,RF,CEM,151.5 µM
Nc1nc(=O)n([C@@H]2CS[C@H](CO)O2)cc1F,,,HXB2-D WT,MT-2,0.77 µM
Cc1cn([C@H]2C[C@H](N=[N+]=[N-])[C@@H](CO)O2)c(=O)[nH]c1=O,,,RF,CEM + CEM-SS,0.02 µM
Cc1ccccc1CNC(=O)[C@H]1N(C(=O)[C@@H](O)[C@H](Cc2ccccc2)NC(=O)c2cccc(O)c2C)CSC1(C)C,,15% FBS,IIIB,CEM,0.026 µM
CC(C)[C@H](NC(=O)[C@H](OCc1ccccc1)[C@H](O)[C@@H](O)[C@@H](OCc1ccccc1)C(=O)NC1c2ccccc2CC1O)C(=O)NCc1ccccn1,,,,MT-4,0.2 µM
COc1ccc(C(=O)N2CCN(c3ccc4c(c3)CCC(=O)N4)CC2)cc1OC,,,IIIB,CEM + CEM-SS,6.34 µg/mL
Cc1cn([C@H]2C=C[C@@H](CO)O2)c(=O)[nH]c1=O,RT-K65R H221Y,,Site-directed mutant,MT-2,15.41 µM
O=S1(=O)[C@H](Cc2ccccc2)[C@H](OCc2cccnc2)[C@H](O)[C@@H](O)[C@@H](OCc2cccnc2)[C@H]1Cc1ccccc1,,,IIIB,MT-2,<2 µM
CN1CC=C(CC2(CC3=CCN(C)CC3)C(=O)N(c3ccccc3)c3ccccc32)CC1,,,IIIB,MT-2,2.4 µM
CNC(=O)[C@@H](NC(=O)[C@H](OCc1ccc(C2=C(O)C(=O)CCC2)cc1)[C@H](O)[C@@H](O)[C@@H](OCc1ccc(C2=C(O)C(=O)CCC2)cc1)C(=O)N[C@H](C(=O)NC)C(C)C)C(C)C,,,,MT-4,0.2 µM
O=S1(c2ccccc2)=NC(=S)Nc2ccccc21,,,IIIB,Macrophage,0.66 µM
O=C1N(c2ccccc2)c2ccccc2C1(Cc1ccccc1)Cc1ccncc1,,,IIIB,MT-2,28.1 µM
COc1ccc(C[C@H](NC(=O)c2cccc(O)c2C)[C@H](O)C(=O)N2CSC(C)(C)[C@H]2C(=O)NCc2ccccc2C)cc1,,15% FBS,IIIB,CEM,0.0066 µM
O=[N+]([O-])c1ccc(CO[C@@H]2[C@H](O)[C@@H](O)[C@@H](OCc3ccc([N+](=O)[O-])cc3)[C@@H](Cc3ccccc3)S(=O)(=O)[C@@H]2Cc2ccccc2)cc1,,,IIIB,MT-2,2–10 µM
CC(C)=CCN1Cc2cccc3[nH]c(=S)n(c23)C[C@@H]1C,,,RF,CEM + CEM-SS,<0.03 µM
O=C(O)c1cc(O)cc(O)c1N=Nc1ccc(/C=C/c2ccc(N=Nc3c(O)cc(O)cc3C(=O)O)cc2S(=O)(=O)O)c(S(=O)(=O)O)c1,,,IIIB,MT-2,14.5 µg/mL
Cc1cc(S(=O)(=O)Nc2n[nH]c(N)n2)c(SCc2nc(N)nc(N(C)C)n2)cc1Cl,,,RF,CEM,>200 µM
CCOC1=C(c2ccc(CO[C@@H](C(=O)N[C@H](C(=O)NC)C(C)C)[C@H](O)[C@@H](O)[C@@H](OCc3ccc(C4=C(OCC)C(=O)CCC4)cc3)C(=O)N[C@H](C(=O)NC)C(C)C)cc2)CCCC1=O,,,,MT-4,0.2 µM
O=C1N(c2ccccc2)c2ccccc2C1(Cc1ccncc1)Cc1ccc([N+](=O)[O-])cc1,,,IIIB,MT-2,3.4 µM
Cc1cc(C)cc(O[C@@H]2[C@H](O)[C@@H](O)[C@@H](Oc3cc(C)cc(C)c3)[C@@H](Cc3ccccc3)S(=O)(=O)[C@@H]2Cc2ccccc2)c1,,,IIIB,MT-2,<2 µM
CN1CC=C(CC2(CC3=CCN(C)CC3)C(=O)N(Cc3ccccc3)c3ccccc32)CC1,,,IIIB,MT-2,34 µM
Cc1cc(S(=O)(=O)Nc2nc(N)nc(N3CCCCC3)n2)c(S)cc1Cl,,,RF,CEM,>200 µM
CNC(=O)[C@@H](NC(=O)[C@H](OCc1ccccc1F)[C@H](O)[C@@H](O)[C@@H](OCc1ccccc1F)C(=O)N[C@H](C(=O)NC)C(C)C)C(C)C,,,,MT-4,0.8 µM

Blank or dashed fields: not listed here. a–b is a range or a potency band. ECn: concentration that inhibits the pathogen or its effect by n%.